Pooled drug test results. Numbers come from NIAID ChemDB, via PubChem.

All rows: whole-cell or culture tests; organism: HIV-1; read-out: EC50

ECn: concentration that inhibits the pathogen or its effect by n%. Two numbers with a dash give a range or band. Blank or dashed fields: not listed here. Conditions beyond the fields shown may differ between rows.

| SMILES | method | strain | changes | cells | result |
|---|---|---|---|---|---|
| CSCSc1nc(Cc2c(F)cccc2F)c(C)c(=O)[nH]1 | cytopathic effect / MTT | IIIB | RT-K103N Y181C | MT-4 | >100 µM |
| COc1ncnc2c1ncn2O[C@H]1CO[C@@H](CO)O1 | - | - | - | MT-4 | >100 µg/mL |
| CCC(O)c1cnc(Nc2ccc(C#N)cc2)nc1Nc1c(C)cc(/C=C/C#N)cc1C | - | IIIB | - | MT-4 | 0.01778 µM |
| COC(=O)c1ccc(OC(C)C(=O)N2CC/C(=C(\C#N)c3ccccc3)CC2C)c(OC)c1 | luciferase / reporter gene | - | - | HeLa CD4 | ≤1 µM |
| CC1(CO)CCC(Cn2cnc3c(N)nc(N)nc32)C1(C)C | cytopathic effect | - | - | CEM | 7 µg/mL |
| Nc1nccc2c1ncn2[C@H]1CC[C@@H](CO)C1 | p24 | A012 | - | PBMC | 3.7 µM |
| Cc1occc1C(=O)NC(C)(C)C(=O)N[C@@]12CC[C@]3(C)[C@H](CC[C@@H]4[C@@]5(C)CC[C@H](OC(=O)C6C[C@@H](C(=O)O)C6(C)C)C(C)(C)[C@@H]5CC[C@]43C)C1=C(C(C)C)C(=O)C2 | p24 | NL4-3 | V7A | MT-4 | >0.05 µM |
| Cc1cc(/C=C/C#N)cc(C)c1Nc1nc(Nc2ccc(C#N)cc2)ncc1C(O)OCCO | - | IIIB | - | MT-4 | 0.00302 µM |
| CC(C)C1=C2[C@H]3CC[C@@H]4[C@@]5(C)CC[C@H](OC(=O)[C@H]6C[C@@H](C(=O)O)C6(C)C)C(C)(C)[C@@H]5CC[C@@]4(C)[C@]3(C)CC[C@@]2(CCNCC(C)(C)NC(=O)c2ccc(O[C@H]3CCOC3)cc2)CC1=O | p24 / ELISA | 92HT599 | - | MT-2 | <1 µM |
| CC(C)C1=C2[C@H]3CC[C@@H]4[C@@]5(C)CC[C@H](OC(=O)C6C[C@@H](C(=O)O)C6(C)C)C(C)(C)[C@@H]5CC[C@@]4(C)[C@]3(C)CC[C@@]2(NC(=O)C(C)(C)NC(=O)c2ccc3ccccc3n2)CC1=O | p24 | NL4-3 | V7A | MT-4 | 0.01001–0.05 µM |
| CNc1ncnc2c1ncn2[C@H]1CO[C@@H](CO)C1 | cytopathic effect | IIIB | - | ATH8 | >100 µM |
| Cc1cccc(N2C(=O)CSC2c2c(Cl)cccc2Cl)n1 | - | - | - | MT-4 | 0.248 µM |
| CNC(O)c1cnc(Nc2ccc(C#N)cc2)nc1Nc1c(C)cc(/C=C/C#N)cc1C | - | K103N + Y181C | - | MT-4 | 0.06607 µM |
| CC(C)C1=C2[C@H]3CC[C@@H]4[C@@]5(C)CC[C@H](OC(=O)C6C[C@@H](C(=O)O)C6(C)C)C(C)(C)[C@@H]5CC[C@@]4(C)[C@]3(C)CC[C@@]2(NC(=O)C(C)(C)NC(=O)c2ccc(Cl)cc2)CC1=O | p24 | NL4-3 | V7A | MT-4 | <0.01 µM |
| Cc1cc(C)c2ccc(-c3cccc([N+](=O)[O-])c3)nc2c1 | MTT | NL4-3 | - | MT-2 | >50 µM |
| O=C(NCc1ccc(F)cc1)c1nc2n(c(=O)c1O)CCOC21CCN(C(=O)c2ccccc2)CC1 | luciferase / reporter gene | NL4-3 | - | MT-2 | 0.001–0.01 µM |
| Cc1cn([C@H]2C[C@H](N=[N+]=[N-])[C@@H](CO)O2)c(=O)[nH]c1=O | p24 / ELISA | MJ4 | - | PBMC | 0.49 µM |
| Cc1cc(/C=C/C#N)cc(C)c1Nc1nc(Nc2ccc(C#N)cc2)ncc1C(O)OCc1cccnc1 | - | Y181C | - | MT-4 | 0.09333 µM |
| C#C[C@@]1(COP(=O)(O)OP(=O)(O)OP(=O)(O)O)C=C[C@H](n2cc(C)c(=O)[nH]c2=O)O1 | luciferase | NL4-3 | P119S/M184V | TZM-bl | 3.6 µM |
| OCCOCc1ccc(F)cc1F | cytopathic effect / MTT | - | - | CEM | >500 µg/mL |
| O=c1[nH]cnc2c1ncn2O[C@@H]1CO[C@@H](CO)O1 | - | - | - | MT-4 | >100 µg/mL |
| CCCCCCCCCCCCCCCCNc1ccn([C@H]2C[C@H](OP(=O)(O)OC[C@H]3O[C@@H](n4cc(C)c(=O)[nH]c4=O)C[C@@H]3N=[N+]=[N-])[C@@H](CO)O2)c(=O)n1 | cytopathic effect / XTT | - | - | CEM + CEM-SS | 1.08 µM |
| CC(C)C1=C2[C@H]3CC[C@@H]4[C@@]5(C)CC[C@H](OC(=O)[C@H]6C[C@@H](C(=O)O)C6(C)C)C(C)(C)[C@@H]5CC[C@@]4(C)[C@]3(C)CC[C@@]2([C@@H](O)CNCc2ccc3c(c2)OCO3)CC1=O | p24 / ELISA | 92HT599 | - | MT-2 | <1 µM |
| CSc1ncnc2c1ncn2[C@H]1CO[C@@H](CO)C1 | cytopathic effect | IIIB | - | ATH8 | >100 µM |
| CC(C)C1=C2[C@H]3CC[C@@H]4[C@@]5(C)CC[C@H](OC(=O)[C@H]6C[C@@H](C(=O)O)C6(C)C)C(C)(C)[C@@H]5CC[C@@]4(C)[C@]3(C)CC[C@@]2(CC(=O)NCc2ccc(Cl)cc2O[C@H]2CCOC2)CC1=O | p24 / ELISA | 92HT599 | - | MT-2 | <1 µM |
| Nc1ncnc2c1ncn2[C@@H]1C=C(CO)[C@@H](O)[C@H]1O | p24 | A018 | - | PBMC | 0.018 µM |
| CC(C)C1=C2[C@H]3CC[C@@H]4[C@@]5(C)CC[C@H](OC(=O)C6C[C@@H](C(=O)O)C6(C)C)C(C)(C)[C@@H]5CC[C@@]4(C)[C@]3(C)CC[C@@]2(NC(=O)C(C)(C)NC(=O)c2ccc(Cl)cn2)CC1=O | p24 | NL4-3 | - | MT-4 | <0.005 µM |
| CC(C)OC(=O)N1CCC2(C1)OCCn1c2nc(C(=O)NCc2ccc(F)cc2)c(O)c1=O | luciferase / reporter gene | NL4-3 | - | MT-2 | 0.001–0.01 µM |
| Cc1cc(C(=O)NC(C)(C)C(=O)N[C@@]23CC[C@]4(C)[C@H](CC[C@@H]5[C@@]6(C)CC[C@H](OC(=O)C7C[C@@H](C(=O)O)C7(C)C)C(C)(C)[C@@H]6CC[C@]54C)C2=C(C(C)C)C(=O)C3)c(C)o1 | p24 | NL4-3 | - | MT-4 | <0.005 µM |
| OCC(CO)OCc1cc(I)c(F)cc1F | cytopathic effect / MTT | - | - | CEM | >500 µg/mL |
| Nc1nccc2c1ncn2[C@@H]1C=C(CO)[C@@H](O)[C@H]1O | p24 | A012 | - | PBMC | 0.01 µM |
| COC(=O)c1ccc(OC(C)C(=O)N2CCC(=C(C#N)c3ccccc3)CC2)c(OC)c1 | luciferase / reporter gene | - | - | HeLa CD4 | ≤1 µM |
| CCCCC(C)(C)[C@H](O)/C=C/[C@H]1C=CC(=O)[C@@H]1CCCCCCC(=O)O | p24 | DV | - | Macrophage + Macrophages | 5.2 µg/mL |
| COc1ncnc2c1ncn2O[C@H]1CS[C@@H](CO)O1 | - | - | - | MT-4 | >100 µg/mL |
| CS(=O)(=O)N1CCC2(CC1)OCCn1c2nc(C(=O)NCc2ccc(F)cc2-n2cncn2)c(O)c1=O | luciferase / reporter gene | NL4-3 | - | MT-2 | 0.001–0.01 µM |
| CCCCCCCCCCCCCCCC(=O)Nc1ccn([C@H]2CC[C@@H](COP(=O)(O)O[C@H]3C[C@H](n4cc(C)c(=O)[nH]c4=O)O[C@@H]3CO)O2)c(=O)n1 | cytopathic effect / XTT | Calo-resistant (RT T139I) | Calanolide-resistant (RT T139I) | CEM + CEM-SS | 0.151 µM |
| O=c1c(N=Nc2ccc(S(=O)(=O)O)cc2)c(-c2ccccc2)[nH]n1-c1nc(-c2ccccc2)cs1 | - | Clinical isolates | - | - | 157.6 µM |
| O=[N+]([O-])c1cc(COCCO)c(F)cc1F | cytopathic effect / MTT | - | - | CEM | >500 µg/mL |
| Nc1ncnc2c1ncn2O[C@@H]1CO[C@@H](CO)O1 | - | - | - | MT-4 | >100 µg/mL |
| Cc1cc(/C=C/C#N)cc(C)c1Nc1nc(Nc2ccc(C#N)cc2)ncc1C(O)C1CCCC1 | - | PSI (IIIB) | - | MT-4 | 1150 µM |
| Nc1nc(=S)c2ncn([C@H]3CO[C@@H](CO)C3)c2[nH]1 | cytopathic effect | IIIB | - | ATH8 | >100 µM |
| COC(=O)c1ccc(OC(C)C(=O)N2CCC(=C(c3ccccc3)c3cccnc3)CC2)c(OC)c1 | luciferase / reporter gene | - | - | HeLa CD4 | >1 µM |
| COC(=O)C(=O)N1CCC2(CC1)OCCn1c2nc(C(=O)NCc2ccc(F)cc2)c(O)c1=O | luciferase / reporter gene | NL4-3 | - | MT-2 | 0.01–0.1 µM |
| Nc1nc(N)c2ncn([C@H]3CO[C@@H](CO)C3)c2n1 | cytopathic effect | IIIB | - | ATH8 | >100 µM |
| Nc1ncnc2c1ncn2O[C@@H]1CS[C@@H](CO)O1 | - | - | - | MT-4 | >100 µg/mL |
| CC(C)C1=C2[C@H]3CC[C@@H]4[C@@]5(C)CC[C@H](OC(=O)[C@H]6C[C@@H](C(=O)O)C6(C)C)C(C)(C)[C@@H]5CC[C@@]4(C)[C@]3(C)CC[C@@]2([C@@H](O)CNCC2(N)CC2)CC1=O | p24 / ELISA | 92HT599 | - | MT-2 | <1 µM |
| Nc1nccc2c1ncn2[C@@H]1O[C@H](CO)[C@@H](O)[C@H]1O | p24 | A018 | - | PBMC | 0.2 µM |
| CC(C)C1=C2[C@H]3CC[C@@H]4[C@@]5(C)CC[C@H](OC(=O)[C@H]6C[C@@H](C(=O)O)C6(C)C)C(C)(C)[C@@H]5CC[C@@]4(C)[C@]3(C)CC[C@@]2(CCNC[C@@H](CO)NC(=O)c2ccc(Cl)cc2)CC1=O | p24 / ELISA | 92HT599 | - | MT-2 | <1 µM |
| CC(C)C1=C2[C@H]3CC[C@@H]4[C@@]5(C)CC[C@H](OC(=O)C6C[C@@H](C(=O)O)C6(C)C)C(C)(C)[C@@H]5CC[C@@]4(C)[C@]3(C)CC[C@@]2(NC(=O)C(C)(C)NS(=O)(=O)c2ccc(Cl)cc2)CC1=O | p24 | NL4-3 | - | MT-4 | >0.01 µM |
| CC1(CO)CCC(Cn2nnc3c(=O)[nH]c(N)nc32)C1(C)C | cytopathic effect | - | - | CEM | 26 µg/mL |
| CSCC[C@H](N)C(=O)N[C@@H](CC(C)C)C(=O)N[C@H](Cc1ccccc1)C(=O)N[C@H](C(=O)N[C@H](Cc1ccccc1)C(=O)N1CCC[C@H]1C(=O)O)C(C)C | p24 | IIIB | - | MT-2 | 17.48 µg/mL |
| Cc1nnc(C(=C2CCN(C(=O)C(C)Oc3cccc4ncccc34)CC2)c2ccccc2)o1 | luciferase / reporter gene | - | - | HeLa CD4 | >1 µM |
| Nc1nc2c(ncn2OC2COC(CO)O2)c(=O)[nH]1 | - | - | - | MT-4 | >100 µg/mL |
| Cc1cn([C@H]2C[C@H](N=[N+]=[N-])[C@@H](CO)O2)c(=O)[nH]c1=O | MTT | IIIB | - | MT-4 | 0.0085 µg/mL |
| CC1(CO)CCC(Cn2nnc3c(N)nc(N)nc32)C1(C)C | cytopathic effect | - | - | CEM | 22 µg/mL |
| CC(C)C1=C2[C@H]3CC[C@@H]4[C@@]5(C)CC[C@H](OC(=O)[C@H]6C[C@@H](C(=O)O)C6(C)C)C(C)(C)[C@@H]5CC[C@@]4(C)[C@]3(C)CC[C@@]2(CC(=O)NC[C@@H](CO)NC(=O)c2ccc(Cl)cc2)CC1=O | p24 / ELISA | 92HT599 | - | MT-2 | <1 µM |
| Cc1cc(COC(CO)CO)c(F)cc1F | cytopathic effect / MTT | - | - | CEM | >500 µg/mL |
| COCCOC(O)c1cnc(Nc2ccc(C#N)cc2)nc1Nc1c(C)cc(/C=C/C#N)cc1C | - | IIIB | - | MT-4 | 0.0024 µM |
| CC(C)C1=C2[C@H]3CC[C@@H]4[C@@]5(C)CC[C@H](OC(=O)C6C[C@@H](C(=O)O)C6(C)C)C(C)(C)[C@@H]5CC[C@@]4(C)[C@]3(C)CC[C@@]2(NC(=O)C(C)(C)NC(=O)c2cccnc2N2CCOCC2)CC1=O | p24 | NL4-3 | V7A | MT-4 | >0.05 µM |

Repeating the final 6 entries:

| SMILES | method | strain | changes | cells | result |
|---|---|---|---|---|---|
| Cc1cn([C@H]2C[C@H](N=[N+]=[N-])[C@@H](CO)O2)c(=O)[nH]c1=O | MTT | IIIB | - | MT-4 | 0.0085 µg/mL |
| CC1(CO)CCC(Cn2nnc3c(N)nc(N)nc32)C1(C)C | cytopathic effect | - | - | CEM | 22 µg/mL |
| CC(C)C1=C2[C@H]3CC[C@@H]4[C@@]5(C)CC[C@H](OC(=O)[C@H]6C[C@@H](C(=O)O)C6(C)C)C(C)(C)[C@@H]5CC[C@@]4(C)[C@]3(C)CC[C@@]2(CC(=O)NC[C@@H](CO)NC(=O)c2ccc(Cl)cc2)CC1=O | p24 / ELISA | 92HT599 | - | MT-2 | <1 µM |
| Cc1cc(COC(CO)CO)c(F)cc1F | cytopathic effect / MTT | - | - | CEM | >500 µg/mL |
| COCCOC(O)c1cnc(Nc2ccc(C#N)cc2)nc1Nc1c(C)cc(/C=C/C#N)cc1C | - | IIIB | - | MT-4 | 0.0024 µM |
| CC(C)C1=C2[C@H]3CC[C@@H]4[C@@]5(C)CC[C@H](OC(=O)C6C[C@@H](C(=O)O)C6(C)C)C(C)(C)[C@@H]5CC[C@@]4(C)[C@]3(C)CC[C@@]2(NC(=O)C(C)(C)NC(=O)c2cccnc2N2CCOCC2)CC1=O | p24 | NL4-3 | V7A | MT-4 | >0.05 µM |